Pooled drug test results. Numbers come from NIAID ChemDB, via PubChem.

ECn is the concentration giving n% inhibition of infection, replication or growth. Fold resistance has wild type as its base. ICn: concentration for n% inhibition. Two numbers with a dash give a range or band. Conditions beyond the fields shown may differ between rows. CCn is the concentration with n% toxicity to the cells. Percent inhibition refers to the dose given; in toxicity tests it is the harm to the cells. An empty or dashed field is not shown.

smiles	changes	conditions	cell line	strain or isolate	agent	kind	dose	method	measure	target	value
CCO/N=C/c1ccc(OCCC2CCN(c3ccc(C)nn3)CC2)cc1			KB	thompson (ICAM-1 receptor group 6	Rhinovirus	culture		neutral red	EC50		0.007 µM
O=C(Nc1nnc(NCCCNC2CCCCC2)s1)c1cc2ccccc2s1					Human cytomegalovirus	target			IC50	Polymerase	<25 µM
CC(C)(C)CC(C)(O)CN(CC(C)(O)CC(C)(C)C)C(=S)S			VERO			toxicity			CC50		28.4 µg/mL
C[C@@H]1O[C@@H]1P(=O)(O)O			HeLa			toxicity			CC50		200 µg/mL
O=C(O)c1cnccn1				RH	Toxoplasma gondii	target	2000 µM		inhibition	Uracil phosphoribosyltransferase	<5%
CCOC(=O)Nc1cc2c(c(N)n1)N=C(c1ccc3ccccc3c1)CS2			RK-13		Encephalitozoon intestinalis	culture	10 µg/mL		inhibition		74.1%
CC(C)=CCN1c2cc(Cl)cc3[nH]c(=S)n(c23)C[C@@H]1C	RT-K70R K103N		MT-4		HIV-1	culture			EC95		1.5 µM
CO[C@H]1/C=C/O[C@@]2(C)Oc3c(C)c(OC(C)=O)c4c(c3C2=O)C(=O)C=C(NC(=O)/C(C)=C\C=C\[C@H](C)[C@H](OC(C)=O)[C@@H](C)[C@@H](O)[C@@H](C)[C@H](OC(C)=O)[C@@H]1C)C4=O			VERO			toxicity			CC50		1.95 µg/mL
CC(C)=CCOc1cc(NC(=S)c2ccoc2C)ccc1Cl	RT-N137K				HIV	target		nucleotide incorporation / radiometric	IC50	Reverse transcriptase	0.04 µM
NCCOP(=O)(O)OC[C@H](O)CO			HeLa			toxicity			CC50		>200 µg/mL
CN(C)c1cc(NC(=O)CNC(C)(C)C)c(O)c2c1C[C@H]1C[C@H]3[C@H](N(C)C)C(=O)C(C(N)=O)=C(O)[C@@]3(O)C(=O)C1=C2O				X72	Mycobacterium massiliense	culture		broth dilution	MIC		2 µg/mL
OC(Cn1cncn1)(Cn1cncn1)c1ccc(F)cc1F				YL 358	Candida albicans	culture		broth dilution	MIC		>512 µg/mL
CCN(CC)CCNc1ccc(CO)c2sc3ccccc3c(=O)c12			VERO			toxicity			CC50		<4.12 µg/mL
CCCCCCCCCCCNc1nnc(NC(=O)c2c(C(C)C)cc(C(C)C)cc2C(C)C)s1					Human cytomegalovirus	target			IC50	Polymerase	>25 µM
Nc1nc2c(ncn2[C@H]2CC[C@@H](COP(=O)(O)OP(=O)(O)OP(=O)(O)O)O2)c(=O)[nH]1	RT-P140A				HIV	target		nucleotide incorporation / radiometric	IC50	Reverse transcriptase	1.3 µM
CCN(CC)CC(O)CNc1ccc(NCC2CO2)c2c1C(=O)c1ccccc1C2=O			VERO			toxicity			CC50		0.28 µg/mL
CNC1CCc2cc(OC)c(OC)c(OC)c2-c2ccc(OC)c(=O)cc21			RK-13		Encephalitozoon intestinalis	culture	1 µg/mL		inhibition		43.76%
CCN(CC)c1ccc2nc3c4ccccc4c(=N)cc-3oc2c1			VERO			toxicity			CC50		0.75 µg/mL
CN(C)[C@@H]1C(=O)C(C(N)=O)=C(O)[C@@]2(O)C(=O)C3=C(O)c4c(O)c(NC(=O)CN5CCOCC5)cc(F)c4C[C@H]3C[C@@H]12				158-tet	Staphylococcus aureus	culture		agar diffusion	MIC		8 µg/mL
CCOC(=O)Nc1cc2c(c(N)n1)N=C(c1ccc(OC)cc1)CO2			RK-13		Encephalitozoon intestinalis	culture	1 µg/mL		inhibition		84.8%
CCN(CC)C(=S)S[Se](SC(=S)N(CC)CC)(SC(=S)N(CC)CC)SC(=S)N(CC)CC			VERO			toxicity			CC50		0.4 µg/mL
O=C(O)P(=O)(O)O			U373-MG			toxicity			CC50		145 µg/mL
CO[C@H]1[C@@H](OC(=O)/C=C/C=C/C=C/C=C/C(=O)O)CC[C@@]2(CO2)[C@@H]1[C@@]1(C)O[C@@H]1CC=C(C)C			RK-13		Vittaforma corneae	culture	0.001 µg/mL		inhibition		56.7%
C#CC[C@@H](C(=O)N[C@H](/C=C/C(=O)OCC)C[C@@H]1CCNC1=O)n1cccc(NC(=O)c2cc(C)on2)c1=O			H1-HELA	Clinical isolate 0 (serotype 39)	Rhinovirus	culture		cytopathic effect / XTT	EC50		0.074 µM
O=C(Nc1ncc([N+](=O)[O-])s1)c1ccccc1O			RK-13		Vittaforma corneae	culture	10 µg/mL		inhibition		89.7%
CCCCC/C=C\C/C=C\C/C=C\C/C=C\CCCC(=O)O			HeLa			toxicity			CC50		50–100 µg/mL
CC[C@H]1OC(=O)[C@H](C)[C@@H](O[C@H]2C[C@@](C)(OC)[C@@H](O)[C@H](C)O2)[C@H](C)[C@@H](O[C@@H]2O[C@H](C)C[C@H](N(C)C)[C@H]2O)[C@](C)(OC)C[C@@H](C)C(=O)[C@H](C)[C@@H](O)[C@]1(C)O				X21	Mycobacterium massiliense	culture		broth dilution	MIC		0.25 µg/mL
C=CCN(C(=O)OCc1ccc([N+](=O)[O-])cc1)C1CCN(CC[C@](C)(CN(C)S(=O)(=O)c2ccccc2)c2ccccc2)CC1	CCR5-Y37A					target		radiometric	IC50	CCR5	0.0013 µM
CCN(CC)CCCC(C)Nc1c2ccc(Cl)cc2nc2ccc(OC)cc12			RK-13		Encephalitozoon intestinalis	culture	0.1 µg/mL		inhibition		11.2%
CN(C)CCc1c2c(nc3ccccc13)C(=O)c1cccnc1C2=O			VERO			toxicity			CC50		0.68 µg/mL
CCc1c[nH]c(=O)[nH]c1=O				RH	Toxoplasma gondii	target	2000 µM		inhibition	Uracil phosphoribosyltransferase	<5%
OC(c1cc(-c2ccc(Cl)c(Cl)c2)nc2ccccc12)C1CCCCN1			VERO			toxicity			CC50		2 µg/mL
O=C1CN=C(c2ccccc2)c2ccccc2N1CCCC1CC(Br)=NO1					Human	host protein	20 µM	fluorescence	inhibition	Cathepsin B	0%
CC1OC(n2ccc(NC(=O)c3ccc(NC(=O)C(C)(N)CO)cc3)nc2=O)CCC1OC1OC(C)C(N(C)C)C(O)C1O			HeLa			toxicity			CC50		78 µM
CC(C)(C)OC(=O)CCNc1nnc(NC(=O)c2ccc(C(F)(F)F)cc2)s1					Human cytomegalovirus	target			IC50	Polymerase	>25 µM
c1cc(CN2CCCNCCNCCCNCC2)ccc1CN1CCCNCCNCCCNCC1					Human	host protein		calcium flux	IC50	CXCR3	>25 µg/mL
CCCSc1ccc2nc(NC(=O)OC)[nH]c2c1			RK-13		Encephalitozoon intestinalis	culture	0.1 µg/mL		inhibition		85.2%
CC(=O)c1cc(O)c(O)c(=O)cc1C		7 d	HepG2-NTCP-12			toxicity		MTS	CC50		6.74 µM
C/C(=N\N1CC(=O)NC1=O)c1ccc([N+](=O)[O-])o1			VERO			toxicity			CC50		23.4 µg/mL
O=C1CN=C(c2ccccc2)c2ccccc2N1CCCCC1CC(Br)=NO1					Human	host protein	20 µM	fluorescence	inhibition	Cathepsin B	0%
C[n+]1c(-c2ccc(/C=N/NC(=O)c3ccc(C(=O)N/N=C/c4ccc(-c5cn6ccccc6[n+]5C)cc4)cc3)cc2)cn2ccccc21			VERO			toxicity			CC50		92.04 µg/mL
CC[C@H]1OC(=O)[C@H](C)[C@@H](O[C@H]2C[C@@](C)(OC)[C@@H](O)[C@H](C)O2)[C@H](C)[C@@H](O[C@H]2O[C@@H](C)C[C@@H](N(C)C)[C@@H]2O)[C@](C)(O)C[C@@H](C)C(=O)[C@H](C)[C@@H](O)[C@]1(C)O			HeLa			toxicity			CC50		>200 µg/mL
CC(C)(C)O/N=C/c1cc(NC(=S)c2ccsc2)ccc1Cl			VERO			toxicity			CC50		13 µg/mL
O=C(Nc1nnc(NC2CCc3ccccc32)s1)c1ccc2c(c1)C(=O)OC2=O					Human cytomegalovirus	target			IC50	Polymerase	<25 µM
COc1cc(C)c2sc3ccccc3c(=O)c2c1NCCCN(C)C			VERO			toxicity			CC50		3.43 µg/mL
CC1(C)S[C@@H]2[C@H](NC(=O)Cc3ccccc3)C(=O)N2[C@H]1C(=O)NCCNC(=O)[C@@H]1N2C(=O)[C@@H](NC(=O)Cc3ccccc3)[C@H]2SC1(C)C					Human	host protein		HPLC	IC50	Renin	>500 µM
c1cnccn1				RH	Toxoplasma gondii	target	2000 µM		inhibition	Uracil phosphoribosyltransferase	<5%
Nc1nc(=O)[nH]s1			VERO			toxicity			CC50		31.48 µg/mL
Nc1ncnc2c1ncn2C[C@@H](CO)OCP(=O)(O)O			H4			toxicity			CC50		20 µg/mL
O=C(Nc1nnc(NC2CCN(Cc3ccccc3)CC2)s1)c1ccc(S(=O)(=O)F)cc1					Human cytomegalovirus	target			IC50	Polymerase	>25 µM
Cc1[nH]nc(-c2cccnc2)c1N=NN1CCC(C(N)=O)CC1			VERO			toxicity			CC50		1.5 µg/mL
CCNC(=O)[C@@H](NC(=O)Cc1ccccc1)[C@@H]1N[C@@H](C(=O)NCCNC(=O)[C@@H]2N[C@@H]([C@H](NC(=O)Cc3ccccc3)C(=O)NCC)SC2(C)C)C(C)(C)S1					Sus domesticus	host protein		nucleotide incorporation	IC50	Pepsin	>500 µM
CC1=CC(=O)c2c(O)cccc2C1=O			RK-13		Encephalitozoon intestinalis	culture	0.1 µg/mL		inhibition		37.9%
C[C@H](CCC(=O)NCCS(=O)(=O)O)[C@H]1CC[C@H]2[C@@H]3[C@H](O)C[C@@H]4C[C@H](O)CC[C@]4(C)[C@H]3C[C@H](O)[C@]12C			HeLa			toxicity			CC50		>200 µg/mL
CCOc1ccc2ccccc2c1C(=O)Nc1nnc(NC2CC2)s1					Human cytomegalovirus	target			IC50	Polymerase	>25 µM
Cc1cn([C@@H]2O[C@H](CO[Si](C)(C)C(C)(C)C)C3(OS(=O)(=O)C=C3N)[C@H]2O[Si](C)(C)C(C)(C)C)c(=O)n(C)c1=O	RT-N137T				HIV	target		nucleotide incorporation / radiometric	fold resistance	Reverse transcriptase	0.19
CC(=O)N[C@@H](C=O)[C@@H](O)[C@H](O)[C@H](O)C(=O)O			HeLa			toxicity			CC50		200 µg/mL

A second listing of 8 rows from above:

CC1OC(n2ccc(NC(=O)c3ccc(NC(=O)C(C)(N)CO)cc3)nc2=O)CCC1OC1OC(C)C(N(C)C)C(O)C1O ; cell line: HeLa ; kind: toxicity ; measure: CC50 ; value: 78 µM
O=C(Nc1nnc(NC2CCN(Cc3ccccc3)CC2)s1)c1ccc(S(=O)(=O)F)cc1 ; agent: Human cytomegalovirus ; kind: target ; measure: IC50 ; target: Polymerase ; value: >25 µM
CC[C@H]1OC(=O)[C@H](C)[C@@H](O[C@H]2C[C@@](C)(OC)[C@@H](O)[C@H](C)O2)[C@H](C)[C@@H](O[C@@H]2O[C@H](C)C[C@H](N(C)C)[C@H]2O)[C@](C)(OC)C[C@@H](C)C(=O)[C@H](C)[C@@H](O)[C@]1(C)O ; strain or isolate: X21 ; agent: Mycobacterium massiliense ; kind: culture ; method: broth dilution ; measure: MIC ; value: 0.25 µg/mL
O=C(O)c1cnccn1 ; strain or isolate: RH ; agent: Toxoplasma gondii ; kind: target ; dose: 2000 µM ; measure: inhibition ; target: Uracil phosphoribosyltransferase ; value: <5%
CCCCCCCCCCCNc1nnc(NC(=O)c2c(C(C)C)cc(C(C)C)cc2C(C)C)s1 ; agent: Human cytomegalovirus ; kind: target ; measure: IC50 ; target: Polymerase ; value: >25 µM
CCNC(=O)[C@@H](NC(=O)Cc1ccccc1)[C@@H]1N[C@@H](C(=O)NCCNC(=O)[C@@H]2N[C@@H]([C@H](NC(=O)Cc3ccccc3)C(=O)NCC)SC2(C)C)C(C)(C)S1 ; agent: Sus domesticus ; kind: host protein ; method: nucleotide incorporation ; measure: IC50 ; target: Pepsin ; value: >500 µM
CCN(CC)c1ccc2nc3c4ccccc4c(=N)cc-3oc2c1 ; cell line: VERO ; kind: toxicity ; measure: CC50 ; value: 0.75 µg/mL
CCO/N=C/c1ccc(OCCC2CCN(c3ccc(C)nn3)CC2)cc1 ; cell line: KB ; strain or isolate: thompson (ICAM-1 receptor group 6 ; agent: Rhinovirus ; kind: culture ; method: neutral red ; measure: EC50 ; value: 0.007 µM